From paper PMC6753678, “Fueling Open Innovation for Malaria Transmission-Blocking Drugs: Hundreds of Molecules Targeting Early Parasite Mosquito Stages” (Frontiers in Microbiology, 2019)

Test system: P. falciparum female gametocytes
Test: P. falciparum female gametogenesis assay (Pf FGAA)
[1] = unified cytotox / Pf FGAA IC50, red: <10-fold selectivity, green: >10-fold
[2] = unified cytotox / Pf FGAA IC50, <10-fold selectivity red, >10-fold green
[3] = unified cytotox / IC50, <10-fold red, >10-fold green

Compound	Assay tox ratio Pf FGAA [1]	Assay tox ratio Pf FGAA [2]	further results
Cl.OC(CNCCCCCCNCC(O)c1ccc(Cl)c(Cl)c1)c1ccc(Cl)c(Cl)c1 (stereo not shown) [TCMDC-141987]	4.74	–	–
Cc1ccc(Cn2nc(Cl)c(N3CCCNCC3)cc2=O)cc1NC(=O)Nc1ccc(-c2ccccc2)cc1.O=C(O)C(F)(F)F [TCMDC-141697]	7.30	–	–
Cc1c(Cn2nc(Cl)c(N3CCNCC3)cc2=O)cccc1NC(=O)Nc1ccc(-c2ccccc2)cc1.O=C(O)C(F)(F)F [TCMDC-141699]	0.86	–	–
CN1CCN(c2cc3c(cc2Cl)CCN3C(=O)Nc2ccc(NC(=O)c3ccc(C(F)(F)F)cc3)cc2)CC1.Cl [TCMDC-139270]	5.75	–	–
O=C(O)C(F)(F)F.c1cc(CN2CCC(CCN3CCCCC3)CC2)cc(-c2csc(-c3nc4ccccc4[nH]3)c2)c1 [TCMDC-133919]	–	2.87	–
CN1CCC(N2CCC(Oc3cccc(C(=O)NCCCC4CCCC4)c3)CC2)CC1 [TCMDC-124677]	–	3.34	–
CN1CCC(NCc2cccc(-c3ccc(S(=O)(=O)NCc4ccccc4)c(F)c3)c2)CC1.O=C(O)C(F)(F)F [TCMDC-132219]	–	1.95	–
Cc1c(N=O)cc(C(C)(C)C)c(O)c1C(=O)Nc1ccc([N+](=O)[O-])cc1Cl [TCMDC-142233]	1.51	–	–
CC(C)(C)OC(=O)NCc1ccc(Nc2nnc(-c3cccc(C(=O)NCc4cc(C(F)(F)F)cc(C(F)(F)F)c4)c3)o2)cc1 [TCMDC-135229]	–	6.82	–
CCn1c(-c2nonc2N)nc2c(-c3cccc(NC(=O)Nc4ccc(Cl)cc4)c3)ncc(OCCCN)c21.O=C(O)C(F)(F)F [TCMDC-136152]	–	6.43	–
COc1cc2nc(N3CCC(CNC(=O)c4ccc(-c5ccc(-c6noc(C)n6)cc5C)cc4)CC3)nc(N)c2cc1OC [TCMDC-138155]	–	4.54	–
Cl.Nc1c2c(nc3ccc(NC(=O)CCCCCCc4ccccc4)cc13)CCCC2 [TCMDC-139056]	2.28	–	–
O=C(/C=C/c1ccc(Cl)c(Cl)c1)N1CCC(CN2CCC(c3c[nH]c4ccncc34)CC2)CC1 [TCMDC-140074]	6.11	–	–
Cc1cc(I)ccc1Nc1nc2nonc2nc1Nc1ccc(I)cc1C [TCMDC-124083]	–	0.86	–
COc1cc2nc(N3CCC(CNC(=O)c4ccc(-c5ccc(C(F)(F)F)cc5)cc4)CC3)nc(N)c2cc1OC [TCMDC-138716]	5.79	–	–
FC(F)(F)c1cccc(Nc2nc3ccccc3nc2Nc2cccc(C(F)(F)F)c2)c1 [TCMDC-124162]	–	7.38	–
CC(Cc1ccc(NS(=O)(=O)c2ccc(CC(C)NCCc3cccc(Cl)c3)cc2)cc1)NCCc1cccc(Cl)c1 (stereo not shown) [TCMDC-139797]	2.37	–	–
CNCC(C)(C)c1nc(-c2ccc(Cl)c(O)c2)c(-c2ccncc2)[nH]1.Cl [TCMDC-140762]	15.32	–	–
O=C(Nc1cc(C(F)(F)F)cc(C(F)(F)F)c1)Nc1ccc(Cl)c(Cl)c1 [TCMDC-125592]	–	2.15	–
CC(C)(C)c1ccc(CNC(=O)c2ccc(CNC3CCC(N)CC3)s2)cc1 (stereo not shown) [TCMDC-140777]	3.67	–	–
O=C(O)C(F)(F)F.O=c1[nH]ccc2nc(N[C@@H]3CCNC3)nc(Nc3cc(Cl)cc(Cl)c3)c12 [TCMDC-135052]	–	6.49	–
COc1ccc(NC(=O)c2cccc(Br)c2)cc1N1CCN(CCCCCCCN2CCN(c3cc(NC(=O)c4cccc(Br)c4)ccc3OC)CC2)CC1.Cl [TCMDC-139020]	5.68	–	–
O=C(Nc1nc(-c2ccccn2)cs1)c1ccc(Br)s1 [TCMDC-123868]	–	32.14	–

Compound	Assay tox ratio Pf FGAA [1]	Assay tox ratio Pf FGAA [2]	further results
CC(Cc1ccc(NC(=O)c2ccc(CC(C)NCc3ccc(Cl)cc3)cc2)cc1)NCCc1cccc(Cl)c1 (stereo not shown) [TCMDC-139810]	4.67	–	–
COc1cc(OC)cc(C(=O)Nc2nc(-c3ccccn3)cs2)c1 [TCMDC-125345]	–	111.27	–
CC(Cc1ccc(NC(=O)c2ccc(CNCCCCc3ccccc3)cc2)cc1)NCCc1cccc(Cl)c1.Cl (stereo not shown) [TCMDC-139866]	1.76	–	–
O=c1c(NCCCN(Cc2ccc(F)cc2)c2ccccn2)c(NCc2cccnc2)c1=O [TCMDC-142311]	278.57	–	–
OC1CCN(c2cc(-c3ccccn3)nc(-c3ccccn3)n2)CC1 [TCMDC-123786]	–	9.15	–
Br.Oc1ccc(CCNCCCCCCNCCc2ccc(-c3ccccc3)cc2)cc1O [TCMDC-131268]	–	1.21	–
CCCN(CC1CC1)c1ncc(-c2cccc(CNCCC3CCCN3C)c2)cn1 (stereo not shown) [TCMDC-133142]	–	1.42	–
Cl.O=C(NCCCCN1CCC(c2ccc3c(c2O)CCCC3)CC1)c1ccc(NC(=O)c2ccc(Cl)cc2)cc1 [TCMDC-138645]	2.55	–	–
Cc1cc(N)c2cc(NC(=O)/C=C/c3ccc([N+](=O)[O-])cc3)ccc2n1 [TCMDC-139335]	2.00	–	–
CN1CCN(CCCNc2ncc3c(-c4ccc(NC(=O)Nc5cc(C(F)(F)F)ccc5F)c(F)c4)nn(C)c3n2)CC1.O=C(O)C(F)(F)F [TCMDC-141611]	5.61	–	–
CC(C)(CNC(=O)[C@H]1CCCN1)c1nc(-c2ccc(Cl)c(O)c2)c(-c2ccncc2)[nH]1.Cl [TCMDC-141060]	27.10	–	–
CCc1ccc(C2CCN(CCCCNC(=O)c3ccc(NC(=O)c4ccc(Cl)cc4)cc3)CC2)c(OCCO)c1 [TCMDC-138703]	2.38	–	–
CCCCCCCN1CC[C@@H](CCCc2ccnc3ccc(OC)cc23)[C@@H](CNC)C1.O=C(O)C(=O)O [TCMDC-139875]	8.04	–	–
N#Cc1ccc(Cn2ccc3c4c(N)nc(N)nc4ccc32)cc1 [TCMDC-137820]	–	–	Assay tox ratio Pf FGAA [3]: 0.00161
CC(C)c1ccc(CN2CCC(CNC(=O)c3cc(-c4ccccc4F)cs3)C2)cc1.O=C(O)C(F)(F)F (stereo not shown) [TCMDC-134436]	–	8.46	–
CCn1c(-c2nonc2N)nc2c(-c3cccc(NC(=O)Nc4ccc5c(c4)CCC5)c3)ncc(OCCCN)c21.O=C(O)C(F)(F)F [TCMDC-136191]	–	7.20	–
Cl.Clc1cc(Br)ccc1-c1ccc(CNCC2CCNCC2)o1 [TCMDC-124617]	–	6.08	–
O=C(Nc1ccc(-c2ccccc2)c(OCCN2CCNCC2)c1)c1ccc(-c2ccc(Cl)cc2)cc1 [TCMDC-138818]	3.60	–	–
Cc1cccc2nc(-c3ccc(-c4ccc(CNCCN5CCNCC5)cc4)s3)[nH]c12.O=C(O)C(F)(F)F [TCMDC-132870]	–	9.35	–
Clc1nc(Cl)c2c(ccn2Cc2ccccc2)n1 [TCMDC-137801]	–	68.59	–
Clc1ccc(-c2csc3ncnc(Cl)c23)cc1 [TCMDC-123811]	–	60.12	–
Cn1c(Nc2cc(C(C)(C)C)on2)nc2cc(Nc3ccnc(Nc4cccc(S(=O)(=O)N5CCOCC5)c4)n3)ccc21 [TCMDC-134098]	–	6.83	–
COc1c(CNCCCCCCNCc2c(OC)c(OC)c3ccccc3c2OC)c(OC)c2ccccc2c1OC.CS(=O)(=O)O [TCMDC-137837]	–	1.20	–

Compound	Assay tox ratio Pf FGAA [1]	Assay tox ratio Pf FGAA [2]	further results
CC(C)Cn1cc(C2CCN(CCN3CCC(CNC(=O)c4ccc(-c5ccc(C(F)(F)F)cc5)cc4)CC3)CC2)c2ccccc21 [TCMDC-138852]	5.47	–	–
COc1ccccc1CNc1ccnc(N2CC(Oc3ccc(F)cc3)C2)n1 [TCMDC-135118]	–	18.10	–
Cc1noc(C)c1-c1ccc2c(Nc3nccc4ccccc34)c(C(N)=O)cnc2c1 [TCMDC-136456]	–	2.50	–
O=C(CCC1CCCC1)N(Cc1ccc(-c2ccc(CNCCc3ccccc3)cc2)cc1)C1CCCNC1.O=C(O)C(F)(F)F (stereo not shown) [TCMDC-141444]	2.62	–	–
CCc1c(CCNCCCCCNCCc2ccc(OC)c(OC)c2CC)ccc(OC)c1OC.Cl [TCMDC-132064]	–	2.28	–
O=C(NCC1CCN(Cc2cccc(C(F)(F)F)c2)C1)c1cc(-c2cccc(C(F)(F)F)c2)cs1.O=C(O)C(F)(F)F (stereo not shown) [TCMDC-134483]	–	9.83	–
CN(C)c1ccc(-c2csc(C(=O)NCC3CCN(Cc4cccc(C(F)(F)F)c4)C3)c2)cc1.O=C(O)C(F)(F)F (stereo not shown) [TCMDC-134486]	–	5.26	–
ON=C(c1nc2ccccc2[nH]1)c1nc2ccccc2[nH]1 [TCMDC-125758]	–	14.86	–
CNCCCNCc1ccc(-c2ccc(F)c(Cl)c2)o1.Cl [TCMDC-125237]	–	5.68	–
Cc1cc(C(F)(F)F)cc(-n2ncc(-c3ccc(C(=O)NCc4ccccc4N)cc3)c2N)n1.O=C(O)C(F)(F)F [TCMDC-136658]	–	18.37	–
C[C@H](Cc1ccc(OCCCCCCOc2ccc(C[C@@H](C)N[C@H](C)c3ccccc3)cc2)cc1)NC[C@H](O)c1cccc(Cl)c1.Cl [TCMDC-131564]	–	5.97	–
O=C(O)C(F)(F)F.O=S(=O)(NCCN1CCCC1)c1ccc(-c2cccc(CNC3Cc4ccccc4C3)c2)cc1 [TCMDC-132215]	–	2.38	–
Nc1ccc2[nH]cc(C3CCN(CCC4CCN(C(=O)/C=C/c5ccc(Cl)c(Cl)c5)CC4)CC3)c2n1 [TCMDC-140062]	6.29	–	–
Cc1ccc(C(C(=O)Nc2ccc(N3CCNCC3)c(Cl)c2)c2ccccc2)cc1 (stereo not shown) [TCMDC-134292]	–	18.11	–
Cl.NCC1(c2nc(-c3ccc(Cl)c(O)c3)c(-c3ccncc3)[nH]2)CCCCC1 [TCMDC-141154]	–	–	Assay tox ratio Pf FGAA [3]: 138.05
CN1CCCC(CN2CCN(Cc3cccc(-c4ccc(-c5nc6cc(C(F)(F)F)ccc6[nH]5)cc4)c3)CC2)C1.O=C(O)C(F)(F)F (stereo not shown) [TCMDC-133882]	–	3.14	–
COc1cc(CNCCCCCCNCc2cc(OC)c3ccccc3c2OC)c(OC)c2ccccc12.CS(=O)(=O)O [TCMDC-137502]	–	2.20	–
CCc1c(CCNC/C=C/C=C/CNCCc2ccc(OC)c(OC)c2CC)ccc(OC)c1OC.Cl [TCMDC-132061]	–	1.82	–
Cc1[nH]c(C)c(-c2ccc(CCc3ccc(F)cc3F)cc2)c(=O)c1Cl [TCMDC-135462]	–	–	Assay tox ratio Pf FGAA [3]: 7.52
CN(C)CCN(C)Cc1ccc(-c2ccc3c(Nc4ccc(Oc5ccccn5)cc4)ccnc3c2)o1 [TCMDC-138426]	–	2.62	–
CN1CCC=C(C(=O)NCC(C)(C)c2nc(-c3ccc(Cl)c(O)c3)c(-c3ccncc3)[nH]2)C1.Cl [TCMDC-140700]	6.98	–	–
